Results from PMC8470104, “Anti-Metatype Antibody Screening, Sandwich Immunoassay Development, and Structural Insights for β-Lactams Based on Penicillin Binding Protein” (Molecules, 2021).

System: PBP2x*
Conditions: in milk

## CO/N=C(\C(=O)N[C@@H]1C(=O)N2C(C(=O)O)=C(CSc3nc(=O)c(=O)[nH]n3C)CS[C@H]12)c1csc(N)n1 [CTRX, Cefatriaxone]
  LOD of sandwich ELISA: 1.65 ng/mL
  working range of sandwich ELISA: 1 to 1000 ng/mL
